In patent publication US10117871B2, “3-hydroxypyrimidine-2,4-dione-5-carboxamides as potent inhibitors of HIV” (Regents of the University of Minnesota, priority 2015, dated 2018):

test system: HIV-1IIIB; test: HIV-1 cytoprotection (CPE reduction) antiviral assay; assay type: cell-based; conditions: Therapeutic index, defined by CC50/EC50
Protocol: The antiviral activity of newly synthesized analogues of chemotype 7 was evaluated against HIV-1IIIB in CEM-SS cells using an assay based on viral cytopathic effect (CPE). In this assay, the reduction of CPE was used to indicate the antiviral activity of a compound.
Briefly virus and cells were mixed in the presence of test compound and incubated for 6 days. […] Each assay plate contained cell control wells (cells only), virus control wells (cells plus virus), compound toxicity control wells (cells plus compound only), compound colorimetric control wells (compound only) as well as experimental wells (compound plus cells plus virus). Cytoprotection and compound cytotoxicity were assessed by MTS (CellTiter® 96 Reagent, Promega, Madison Wis.) and the EC50 (concentration inhibiting virus replication by 50%), CC50 (concentration resulting in 50% cell death) and a calculated TI (therapeutic index CC50/EC50) were provided. Each assay included AZT as a positive control.

Compared with CCNc1[nH]c(=O)n(O)c(=O)c1C(=O)NCc1cccc(Cl)c1F [Compound 7-xxiii, N-(3-Chloro-2-fluorobenzyl)-1-(hydroxy)-4-(ethylamino)-1,2,3,6-tetrahydro-2,6-dioxopyrimidine-5-carboxamide], CCNc1[nH]c(=O)n(O)c(=O)c1C(=O)NCc1ccc(Cl)c(F)c1 [Compound 7-xxii, N-(4-Chloro-3-fluorobenzyl)-1-(hydroxy)-4-(ethylamino)-1,2,3,6-tetrahydro-2,6-dioxopyrimidine-5-carboxamide] is lower in TI: 1200 for the first, 100 for the second.

Compared with CCNc1[nH]c(=O)n(O)c(=O)c1C(=O)NCc1cc(F)ccc1F [Compound 7-xvii, N-(2,5-Difluorobenzyl)-1-(hydroxy)-4-(ethylamino)-1,2,3,6-tetrahydro-2,6-dioxopyrimidine-5-carboxamide], CCNc1[nH]c(=O)n(O)c(=O)c1C(=O)NCc1ccc(F)c(F)c1 [Compound 7-xx, N-(3,4-Difluorobenzyl)-1-(hydroxy)-4-(ethylamino)-1,2,3,6-tetrahydro-2,6-dioxopyrimidine-5-carboxamide] is lower in TI: 1500 for the first, 430 for the second.

First: CCNc1[nH]c(=O)n(O)c(=O)c1C(=O)NCc1ccccc1 [Compound 7-vi, N-Benzyl-1-(hydroxy)-4-(ethylamino)-1,2,3,6-tetrahydro-2,6-dioxopyrimidine-5-carboxamide]
Second: CNc1[nH]c(=O)n(O)c(=O)c1C(=O)NCc1ccccc1 [Compound 7-v, N-Benzyl-1-(hydroxy)-1,2,3,6-tetrahydro-4-(methylamino)-2,6 dioxopyrimidine-5-carboxamide]
The TI of the first is higher: 380 for the first, 70 for the second.

First: CCNc1[nH]c(=O)n(O)c(=O)c1C(=O)NCc1ccc(C)c(F)c1 [Compound 7-xxiv, N-(3-Fluoro-4-methylbenzyl)-1-(hydroxy)-4-(ethylamino)-1,2,3,6-tetrahydro-2,6-dioxopyrimidine-5-carboxamide]
Second: CCNc1[nH]c(=O)n(O)c(=O)c1C(=O)NCc1ccc(F)cc1 [Compound 7-xvi, N-(4-Fluorobenzyl)-1-(hydroxy)-4-(ethylamino)-1,2,3,6-tetrahydro-2,6-dioxopyrimidine-5-carboxamide]
The TI of the first is lower: 130 for the first, 580 for the second.

Cc1cn([C@H]2C[C@H](N=[N+]=[N-])[C@@H](CO)O2)c(=O)[nH]c1=O [AZT, reference compound] showed a TI of over 130.
